According to patent US20240254204A1 (published 2024):

Molecular target: SARS-COV-2 B.1.1.7 RBD (SARS-CoV-2 B.1.1.7 (Alpha))
Assay: multiplex sVNT RBD-ACE2 blocking

Binder	IC50 [µg/mL]
Antibody 13 (SS6V13-F1) (antibody, V domains shown) VH: QVQLQESGPGLVKPSETLSLTCSVSGVSILGSYWGWIRQPPGTGLQWIGYIYFSENTNYNPSLQSRVTMSLDTSKNLLSLKLSSVTAADTAVYYCARGGGYLETGPFDSWGQGTLVTVSS VL: DIVMTQSPLSLPVTPGEPASISCRSSQGLVQSNGYNYLAWYLQKPGQSPQLLIYLGSNRASGVPDRFSGSGSGTDFTLKISRVEAEDVGVYYCMQGLQTPGTFGQGTRLEIK	0.092
Antibody 11 (SS6V11-E7) (antibody, V domains shown) VH: QVQLQESGPGLVKPSETLSLTCTVSGGFIGPHYWSWVRQPPGKGLEWIGYIYISGSTNYNPSLKSRLTISVDMSKSQFSLTLSSATAADTAVYYCARGGGYLETGPFEYWGQGTLVTVSS VL: DIVMTQSPLSLPVTPGEPASISCRSSQSLLQNNGYNYLAWYLQKPGQSPQLLIYLSSTRASGVPDRFSGSGSGTDFTLKISRVEAEDVGVYYCMQSLQIPGTFGQGTRLEIK	0.084
